For this test, the target named is FAO-Q1 (Fusarium proliferatum, UniProt A0A1L7VP54). In words: Substrate specificity of FAO-Q1 (FAO activity, rate method, H2O2 colorimetry). The class given is biochemical. As for the experimental part:
Titration of enzyme can be performed by a method known in the art (e.g., kinetic method), for example, that described in Example 1 (3). In this method, hydrogen peroxide generated by the reaction of an FAO with a glycated amino acid or peptide is measured on the basis of absorbance (505 nm) of quinone pigment produced in the presence of hydrogen peroxide. The amount (μmole) of hydrogen peroxide generated per minute is calculated on the basis of molar absorptivity (5.16×10^3 M^−1 cm^−1) of quinone pigment and the resultant numerical value is taken as a unit (U) of enzyme activity.
FAO activity of the crude enzyme solution was determined by the aforementioned rate method. The time-course of generation of hydrogen peroxide in the reaction mixture below was measured by a colorimetric method, and FAO activity was evaluated.
A mixture (total 3 ml) except for the enzyme solution was equilibrated at 30° C. After adding the enzyme solution, the time-course of absorbance at 505 nm was measured. The amount (μmole) of hydrogen peroxide generated per minute was calculated on the basis of molar absorptivity (5.16×10^3 M^−1 cm^−1) of quinone pigment produced, and the resultant numerical value was taken as a unit(U) of enzyme activity. […]
The substrate specificity of the enzymes (FAO-Q1, FAO-Q2) contained in 2 fractions separated in (1), 3) above was determined. […]

These results are taken from US7407783B2, “Fructosylamine oxidase” (priority 2002, dated 2008).

For fructosyl valine-leucine (VL) [FVL], the “Activity of FAO-Q1 on the substrate (in words)” value is “active”. Further, the “Relative activity (%) FAO-Q1” value (activity of FAO-Q1 on the substrate, FV = 100) was 1.1%.
